Tested on: mouse embryonic fibroblasts (MEFs)
Test: MEF-to-iMN reprogramming, quantification of conversion yield
Format: cell-based
Conditions: 6FDDRR, 1 μg/mL from 3-7 dpi, 14 dpi (FIG. 9O)

## α-amanitin
  reprogramming (yield of iMNs): significantly impaired
